Reference: patent publication US9206412B2, “Thioxothiazolidine inhibitors” (Colorado State University Research Foundation, priority 2012, dated 2015)

Chains of the proteins cited; added tags and fusions are not shown. Residues count along the entry.
UniProt P29990, 2492-2758 limits assumed: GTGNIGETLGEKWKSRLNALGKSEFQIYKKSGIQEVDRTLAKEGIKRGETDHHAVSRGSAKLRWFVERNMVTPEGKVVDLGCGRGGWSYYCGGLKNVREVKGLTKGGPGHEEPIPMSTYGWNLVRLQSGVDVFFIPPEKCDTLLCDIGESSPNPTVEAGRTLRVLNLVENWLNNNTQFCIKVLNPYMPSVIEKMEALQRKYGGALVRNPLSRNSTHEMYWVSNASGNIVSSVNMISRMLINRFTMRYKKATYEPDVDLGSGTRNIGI

How the values were obtained:
[1] = target: yellow fever virus capping enzyme (Yellow fever virus, UniProt P03314)
[2] = test system: dengue type 2 virus subgenomic replicon (BHK-pD2hRucPac); test: Antiviral (replicon) assay, Renilla luciferase; type: cell-based; conditions: read-out: Replicon Assay_EC50_M; Table 2-1
[3] = target: dengue virus capping enzyme (Dengue virus type 2, UniProt P29990)

For O=C(CCN1C(=O)SC(=Cc2ccc(Cl)cc2)C1=O)Nc1ccc(S(=O)(=O)Nc2nccs2)cc1, the Ki [1] was 6 µM, the EC50 [2] was 50 µM and the Ki [3] was 6 µM.
